Pooled drug test results. Numbers come from NIAID ChemDB, via PubChem.

All rows: tests in culture; organism: HIV-1; cell line: MT-4; read by: MTT; read-out: EC50

ECn is the concentration giving n% inhibition of infection, replication or growth. Blank or dashed fields: not listed here. Lines come from different laboratories, so protocols vary.

structure | mutations | strain | value
COc1c(-c2cc(C)n(C)n2)c(O)c(S(=O)(=O)Oc2ccc([N+](=O)[O-])cc2)c2occc12 | - | IIIB | 0.000015 µM
O=C1Nc2ccc(Cl)cc2[C@@](C#CC2CC2)(C(F)(F)F)O1 | Y188L | - | 0.247 µM
Cc1ccc2sn(/N=C/c3ccc([N+](=O)[O-])cc3)c(=O)c2c1 | K103N + Y181C | - | >100 µM
COc1c(C(=O)/C=C(/C)Nc2ccc(Cl)cc2)c(O)c(S(=O)(=O)OC2CCCC2)c2occc12 | - | IIIB | 0.000043 µM
COc1ccc(/C=N/n2sc3ccccc3c2=O)cc1 | Y181C | - | >19 µM
CCc1c(Cc2cc(C)cc(C)c2)n(Cc2ccc(I)cc2)c(=O)[nH]c1=O | EFV:K103R+V179D+P225H | IIIB | >43 µM
COc1c(O)cc2ccc(=O)oc2c1-c1c(O)ccc2ccc(=O)oc12 | - | IIIB | 8.7 µM
CCOCn1c(Cc2cc(OC)cc(OC)c2)c(C(C)C)c(=O)[nH]c1=O | Efavirenz-resistant (K103R + V179D + P225H) | IIIB | >100 µM
COc1c(C(=O)/C=C(/C)Nc2ccc([N+](=O)[O-])cc2)c(O)c(S(=O)(=O)OC2CCCCC2)c2occc12 | - | IIIB | 0.000046 µM
CCc1c(Cc2cc(OC)cc(OC)c2)[nH]c(=S)[nH]c1=O | - | IIIB | >100 µM
O=c1c2ccccc2sn1/N=C/c1ccc([N+](=O)[O-])cc1[N+](=O)[O-] | K103N + Y181C | - | >100 µM
C#CCOCn1c(Cc2cccc(C(F)(F)F)c2)c(C(C)C)c(=O)[nH]c1=O | K103N + Y181C | A17 | 11 µM
Cc1ccc2sn(/N=C/c3ccccc3[N+](=O)[O-])c(=O)c2c1 | K103N + Y181C | - | >100 µM
CCc1c(Cc2cc(C)cc(C)c2)n(COCC#Cc2cccc(O[Si](c3ccccc3)(c3ccccc3)C(C)(C)C)c2)c(=O)[nH]c1=O | EFV-resistant (K103R V179D P225H) | IIIB | 5.4 µM
COc1c(-c2cc(C)on2)c(O)c(S(=O)(=O)OC2CCCC2)c2occc12 | - | IIIB | 0.000031 µM
Cc1ccc2sn(/N=C/c3cccc(O)c3)c(=O)c2c1 | K103N + Y181C | - | >16 µM
CCc1c(Cc2cc(C)cc(C)c2)n(COCC#Cc2ccc(N)cc2)c(=O)[nH]c1=O | Y181C | IIIB | 1.8 µM
COc1c2ccoc2c(S(=O)(=O)OC2CCCC2)c2oc(C)cc(=O)c12 | - | IIIB | 0.000058 µM
CCC(c1ccc(C)cc1)c1c(C)c(=O)[nH]c(=O)n1COCc1ccccc1 | - | IIIB | >43.7 µM
O=c1c2ccccc2sn1/N=C/c1cccc(O)c1 | Y181C | - | >15 µM
C#CCOCn1c(Cc2cc(F)ccc2F)c(CC)c(=O)[nH]c1=O | - | EFV-resistant (K103R V179D P225H) | >100 µM
Cc1cccc(C(C)c2c(C(C)C)c(=O)[nH]c(=O)n2COCc2ccccc2)c1 | - | IIIB | 0.23 µM
C=CCOCn1c(Cc2cccc(C(F)(F)F)c2)c(CC)c(=O)[nH]c1=O | - | N119 (Y181C) | 3.2 µM
C#Cc1ccc(Nc2nccc(Oc3c(C)cc(-c4cn(CCc5cccs5)nn4)cc3C)n2)cc1 | Y188L | IIIB | >5.53 µM
CCOCn1c(Cc2ccccc2)c(C(C)C)c(=O)[nH]c1=O | Y181C resistant | - | 20 µM
C=C(C)COCn1c(Cc2ccccc2)c(CF)c(=O)[nH]c1=O | - | - | >20 µM
Cc1c(C(C)(O)c2ccccc2Cl)n(COCc2ccccc2)c(=O)[nH]c1=O | - | IIIB | 34.46 µM
CCc1c(Cc2cc(C)cc(C)c2)n(Cc2ccc(C#CCO)cc2)c(=O)[nH]c1=O | Y181C | Clinical isolates | 0.1 µM
CCOCn1c(Cc2cc(C(F)(F)F)cc(C(F)(F)F)c2)c(C(C)C)c(=O)[nH]c1=O | - | EFV-resistant (K103R V179D P225H) | >100 µM
CCc1c(Cc2cc(C)cc(C)c2)n(COCC#Cc2ccc(NC(=O)C(F)(F)F)cc2)c(=O)[nH]c1=O | WT | IIIB | 0.007 µM
Cc1ccc2sn(/N=C/c3ccccc3O)c(=O)c2c1 | - | - | >30 µM
CCc1c(Cc2ccccc2C)n(COCC#Cc2ccc(NC(=O)CBr)cc2)c(=O)[nH]c1=O | K103N + Y181C | IIIB | >41 µM
Cc1ccc(C(C)(O)c2c(C)c(=O)[nH]c(=O)n2COCc2ccccc2)cc1 | - | IIIB | >141.6 µM
CCOCn1c(Cc2cc(C(F)(F)F)cc(C(F)(F)F)c2)c(CC)c(=O)[nH]c1=O | - | EFV-resistant (K103R V179D P225H) | >100 µM
Cc1ccccc1C(C)c1c(C)c(=O)[nH]c(=O)n1COCc1ccccc1 | F227L + V106A | IIIB | >343 µM
C#Cc1ccc(Nc2nccc(Oc3c(C)cc(-c4cn(Cc5ccc(C(=O)OC)cc5)nn4)cc3C)n2)cc1 | F227L and V106A | IIIB | ≥9.22 µM
Cc1cn([C@H]2C[C@H](N=[N+]=[N-])[C@@H](CO)O2)c(=O)[nH]c1=O | MDR (74V 41L 106A 215Y) | - | 0.08 µM
C=C(C)COCn1c(Cc2ccccc2)c(CO)c(=O)[nH]c1=O | EFV:K103R+V179D+P225H | IIIB | >20 µM
CCC(c1ccc(F)cc1)c1c(C)c(=O)[nH]c(=O)n1COCc1ccccc1 | - | IIIB | >73.82 µM
O=c1c2ccccc2sn1/N=C/c1ccc(O)c(O)c1 | - | - | >44 µM
COc1cc(Cc2[nH]c(=O)[nH]c(=O)c2C(C)C)cc(OC)c1 | Y181C | N119 | >100 µM
CCc1c(Cc2cc(C)cc(C)c2)n(COCC#Cc2ccc(NC(=O)CBr)cc2)c(=O)[nH]c1=O | WT | IIIB | 0.008 µM
C=CCOCn1c(Cc2ccccc2)c(CF)c(=O)[nH]c1=O | K103N + Y181C | IIIB | >100 µM
COc1cc(/C=N/n2sc3ccc(C)cc3c2=O)ccc1O | K103N + Y181C | - | >16 µM
CCc1c(Cc2cc(C)cc(C)c2)n(COCC#Cc2cc(C(F)(F)F)cc(C(F)(F)F)c2)c(=O)[nH]c1=O | Y181C | IIIB | 60 µM
C=C(C)COCn1c(Cc2cc(F)ccc2F)c(CC)c(=O)[nH]c1=O | K103N + Y181C | A17 | >56 µM
Cc1c(C(C)c2cccc3ccccc23)n(COCc2ccccc2)c(=O)[nH]c1=O | - | IIIB | >294 µM
COc1c(-c2cc(C)n(-c3ccccc3)n2)c(O)c(S(=O)(=O)Oc2ccc(F)cc2)c2occc12 | - | IIIB | 0.000012 µM
CCc1c(Cc2cc(C)cc(C)c2)n(COCC#Cc2ccccc2C(F)(F)F)c(=O)[nH]c1=O | WT | IIIB | 0.06 µM
CC(C)c1c(Cc2ccccc2)n(COCCOc2ccccc2)c(=O)[nH]c1=O | K103N + Y181C | A17 | >35 µM

For reference, 3 entries again:

structure,mutations,strain,value
COc1c(-c2cc(C)n(-c3ccccc3)n2)c(O)c(S(=O)(=O)Oc2ccc(F)cc2)c2occc12,-,IIIB,0.000012 µM
O=c1c2ccccc2sn1/N=C/c1cccc(O)c1,Y181C,-,>15 µM
Cc1ccc2sn(/N=C/c3cccc(O)c3)c(=O)c2c1,K103N + Y181C,-,>16 µM